Reference: PubChem BioAssay AID504690 (Sanford-Burnham Center for Chemical Genomics, 2011)
The list shows a part of the results, in another mix than the full data. Calls of active or inactive are those of the source.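 How the source made its calls: active means inhibition reaching at least a set limit at 20 µM in the primary screen (cut at about 59% in these data); inactive means the rest.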

The compounds below were run on glucose-6-phosphate dehydrogenase-6-phosphogluconolactonase (Plasmodium falciparum 3D7) (assay: PfG6PD enzyme inhibitors, primary screen, biochemical, fluorescence intensity, uHTS (AID 504690;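 further: 0% = DMSO wells with substrate and 100% = DMSO wells lacking glucose-6-phosphate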)). Conditions: PfGluPho enzyme, NADPH resazurin-diaphorase fluorescence; at 20 µM; active compounds read high.
`O=C(COc1ccccc1)OC1CN2CCC1CC2` (stereo unspecified) was tested, and the inhibition was inactive: -18.4%.
